Consider three compounds from publication PMC5802825, “Legionella DotM structure reveals a role in effector recruiting to the Type 4B secretion system” (2018).

For the assay, the target named is DotM153 WT (cytoplasmic domain of DotM, residues 153–380) (Legionella pneumophila subsp. pneumophila, UniProt Q5ZYC7). Nature of the assay: Isothermal titration calorimetry of effector C-terminal peptides binding to wild-type DotM153. Conditions: ITC, 25 °C, 100 mM NaCl, 25 mM HEPES pH 7.5, protein 10–30 μM, peptide 220–350 μM, single-site-binding model. For orientation: In ITC the heat of successive injections is recorded.
For the compound `CC(C)C[C@H](NC(=O)[C@H](CO)NC(=O)[C@H](CO)NC(=O)[C@H](CC(C)C)NC(=O)[C@H](CC(C)C)NC(=O)[C@H](CO)NC(=O)[C@H](CO)NC(=O)[C@H](CCC(=O)O)NC(=O)[C@H](CCC(=O)O)NC(=O)[C@H](CCC(=O)O)NC(=O)[C@H](CCC(=O)O)NC(=O)[C@H](CCC(=O)O)NC(=O)[C@H](CCC(=O)O)NC(=O)[C@H](CCC(=O)O)NC(=O)[C@H](CCC(=O)O)NC(=O)[C@H](CC(C)C)NC(=O)[C@H](CC(C)C)NC(=O)[C@@H](NC(=O)[C@H](CC(=O)O)NC(=O)[C@H](CC(=O)O)NC(=O)[C@H](CO)NC(=O)[C@H](CO)NC(=O)[C@H](Cc1ccccc1)NC(=O)CNC(=O)CN)C(C)C)C(=O)N[C@@H](CCCCN)C(=O)N[C@@H](CCC(=O)O)C(=O)O`, the “KD (μM)” value is “high affinity”.
The value for `CC(C)[C@H](NC(=O)[C@H](CO)NC(=O)[C@H](C)NC(=O)[C@H](CO)NC(=O)[C@H](CC(N)=O)NC(=O)[C@H](CCCNC(=N)N)NC(=O)[C@H](CO)NC(=O)[C@H](CCC(=O)O)NC(=O)[C@H](CCC(=O)O)NC(=O)[C@H](CC(=O)O)NC(=O)[C@H](CCC(=O)O)NC(=O)[C@H](CC(N)=O)NC(=O)[C@H](CCC(=O)O)NC(=O)[C@H](CCC(=O)O)NC(=O)[C@H](CCC(=O)O)NC(=O)[C@H](CO)NC(=O)[C@H](CCC(=O)O)NC(=O)[C@H](C)NC(=O)[C@H](CCCCN)NC(=O)[C@H](CC(=O)O)NC(=O)[C@H](CCC(=O)O)NC(=O)[C@H](CO)NC(=O)[C@@H](NC(=O)[C@@H](NC(=O)[C@H](CCCCN)NC(=O)[C@@H]1CCCN1C(=O)CNC(=O)CN)C(C)C)C(C)C)C(=O)O` was “high affinity”.
The value for `CSCC[C@H](NC(=O)[C@@H](NC(=O)[C@H](Cc1ccccc1)NC(=O)[C@H](CCCNC(=N)N)NC(=O)[C@H](CO)NC(=O)[C@H](CO)NC(=O)[C@H](CCC(=O)O)NC(=O)[C@H](CCC(=O)O)NC(=O)[C@H](CC(N)=O)NC(=O)[C@H](CCC(=O)O)NC(=O)[C@H](CCC(=O)O)NC(=O)[C@H](CCC(=O)O)NC(=O)[C@H](CCCCN)NC(=O)[C@H](CCC(=O)O)NC(=O)[C@H](CCC(=O)O)NC(=O)[C@H](CC(N)=O)NC(=O)[C@H](CCC(=O)O)NC(=O)[C@H](CO)NC(=O)[C@H](CO)NC(=O)[C@H](CCC(=O)O)NC(=O)[C@H](CO)NC(=O)[C@H](CO)NC(=O)[C@H](CO)NC(=O)[C@H](Cc1ccccc1)NC(=O)[C@H](CCC(=O)O)NC(=O)[C@H](C)NC(=O)CNC(=O)CN)[C@@H](C)O)C(=O)O` was “high affinity”.
